{"sequences": {"note": "Chains of the proteins cited; added tags and fusions are not shown. Residues count along the entry.", "UniProt P02768, 25-609": "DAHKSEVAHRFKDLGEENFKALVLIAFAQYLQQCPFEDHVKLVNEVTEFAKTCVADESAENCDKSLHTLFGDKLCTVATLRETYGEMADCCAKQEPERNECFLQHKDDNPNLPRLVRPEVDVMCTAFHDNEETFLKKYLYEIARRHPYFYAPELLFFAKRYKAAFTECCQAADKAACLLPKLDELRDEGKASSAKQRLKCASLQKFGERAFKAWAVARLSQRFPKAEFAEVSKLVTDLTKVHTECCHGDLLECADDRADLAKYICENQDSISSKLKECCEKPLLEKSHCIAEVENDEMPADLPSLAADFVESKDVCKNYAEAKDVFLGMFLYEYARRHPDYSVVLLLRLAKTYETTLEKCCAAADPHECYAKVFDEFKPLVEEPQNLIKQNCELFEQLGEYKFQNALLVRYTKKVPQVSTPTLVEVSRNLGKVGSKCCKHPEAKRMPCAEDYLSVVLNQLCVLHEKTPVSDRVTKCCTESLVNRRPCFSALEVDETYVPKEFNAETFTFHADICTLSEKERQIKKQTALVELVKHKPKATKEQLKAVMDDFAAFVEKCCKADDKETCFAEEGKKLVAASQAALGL"}, "source": "patent US20220018852A1", "about": "“METHODS AND KITS FOR DETECTING LIVER DYSFUNCTION IN A SUBJECT” (priority 2018, published 2022)", "key": {"[1]": {"biological_target": "T1, HSA (Homo sapiens, UniProt P02768)", "assay": "SEB test, development cohort: 45 cirrhotic vs 45 control patients", "type": "binding"}, "[2]": {"biological_target": "T1, HSA", "assay": "SEB test, discovery cohort: cirrhotic patients vs patients with no liver dysfunction"}}, "data": [{"compound": "O.O.O.[Cl][Au]([Cl])[Cl]", "note": "[Au, gold(III) chloride trihydrate]", "values": [{"measurement": "specificity (Sp)", "setting": "[1]", "result": 98, "unit": "%"}, {"measurement": "Ratio Au/HSA, reference value", "setting": "[2]", "result": 10}, {"measurement": "sensitivity of discrimination of cirrhotic from control patients", "setting": "[2]", "result": 100, "unit": "%"}, {"measurement": "specificity of discrimination of cirrhotic from control patients", "setting": "[2]", "result": 100, "unit": "%"}]}]}
